Data as given in PubChem BioAssay AID1259414 (Drosophila RNAi Screening Center, 2018).

Test: 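Host factors increasing or decreasing Wolbachia levels in cultured fly cells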 (primary screen)
Cell system: Drosophila JW18 cells infected with Wolbachia
Reagents: long dsRNA against Drosophila genes, 0.25 µg dsRNA per well of a 384-well plate
Timing: 5 days
Conditions: cells persistently infected with Wolbachia before knock-down; no added drug
Detection: 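Automated imaging of bacterial rRNA staining divided by host cell count, reported as plate-normalised robust z-score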
Scale: Wolbachia per cell robust z: higher = more Wolbachia per host cell than the plate typical
Active means: 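Active if absolute robust z reaches 1.5 in two or more of three replicates, leaving out multi- or no-target dsRNAs, genes unexpressed in JW18 and A1 wells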
In all, the deposit lists about 24,000 reagents; below is a random part of those with a known target gene and a result. Over the whole deposit, about 1,210 (5%) are marked active. 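Inactive calls also include excluded dsRNAs with several or no targets, genes unexpressed in JW18, and well A1, regardless of score.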 A plus sign joins genes that one reagent is predicted to hit.

{"gene": "Teh4", "DRSC id": "DRSC08457", "Wolbachia per cell robust z, rep 1": 0.548, "Wolbachia per cell robust z, rep 2": 0.168, "Wolbachia per cell robust z, rep 3": 0.0572, "call": "inactive"}
{"gene": "CG31810", "DRSC id": "DRSC01560", "Wolbachia per cell robust z, rep 1": -2.18, "Wolbachia per cell robust z, rep 2": -0.387, "Wolbachia per cell robust z, rep 3": -1.05, "call": "inactive"}
{"gene": "CycB3", "DRSC id": "DRSC16618", "Wolbachia per cell robust z, rep 1": -2.21, "Wolbachia per cell robust z, rep 2": -0.46, "Wolbachia per cell robust z, rep 3": -1.6, "call": "active"}
{"gene": "danr", "DRSC id": "DRSC14651", "Wolbachia per cell robust z, rep 1": 1.03, "Wolbachia per cell robust z, rep 2": -1.81, "Wolbachia per cell robust z, rep 3": 0.0774, "call": "inactive"}
{"gene": "danr", "DRSC id": "DRSC27029", "Wolbachia per cell robust z, rep 1": -7.22, "Wolbachia per cell robust z, rep 2": -0.36, "Wolbachia per cell robust z, rep 3": 1.69, "call": "inactive"}
{"gene": "ATP6AP2", "DRSC id": "DRSC16420", "Wolbachia per cell robust z, rep 1": -0.138, "Wolbachia per cell robust z, rep 2": -1.28, "Wolbachia per cell robust z, rep 3": 0.804, "call": "inactive"}
{"gene": "CG8509", "DRSC id": "DRSC20109", "Wolbachia per cell robust z, rep 1": -2.35, "Wolbachia per cell robust z, rep 2": 0.662, "Wolbachia per cell robust z, rep 3": -2.72, "call": "active"}
{"gene": "CG8509", "DRSC id": "DRSC41577", "Wolbachia per cell robust z, rep 1": 0.513, "Wolbachia per cell robust z, rep 2": 0.974, "Wolbachia per cell robust z, rep 3": -2.12, "call": "inactive"}
{"gene": "Trf", "DRSC id": "DRSC03462", "Wolbachia per cell robust z, rep 1": 0.861, "Wolbachia per cell robust z, rep 2": -0.108, "Wolbachia per cell robust z, rep 3": -1.4, "call": "inactive"}
{"gene": "CG31086 + CG31323", "DRSC id": "DRSC14902", "Wolbachia per cell robust z, rep 1": -3.8, "Wolbachia per cell robust z, rep 2": 0.497, "Wolbachia per cell robust z, rep 3": -0.395, "call": "inactive"}
{"gene": "CG31086 + CG31323", "DRSC id": "DRSC24466", "Wolbachia per cell robust z, rep 1": -0.222, "Wolbachia per cell robust z, rep 2": 0.0556, "Wolbachia per cell robust z, rep 3": 1.17, "call": "inactive"}
{"gene": "Obp84a + Dtwd2", "DRSC id": "DRSC26806", "Wolbachia per cell robust z, rep 1": 0.785, "Wolbachia per cell robust z, rep 2": 0.255, "Wolbachia per cell robust z, rep 3": 0.904, "call": "inactive"}
{"gene": "primo-2 + primo-1", "DRSC id": "DRSC16511", "Wolbachia per cell robust z, rep 1": -3.57, "Wolbachia per cell robust z, rep 2": -4.48, "Wolbachia per cell robust z, rep 3": 1.03, "call": "inactive"}
{"gene": "primo-2 + primo-1", "DRSC id": "DRSC27823", "Wolbachia per cell robust z, rep 1": -4.73, "Wolbachia per cell robust z, rep 2": 0.382, "Wolbachia per cell robust z, rep 3": 0.152, "call": "inactive"}
{"gene": "Lnk", "DRSC id": "DRSC16729", "Wolbachia per cell robust z, rep 1": 0.532, "Wolbachia per cell robust z, rep 2": 0.586, "Wolbachia per cell robust z, rep 3": 0.28, "call": "inactive"}
{"gene": "CG14932", "DRSC id": "DRSC02414", "Wolbachia per cell robust z, rep 1": -0.235, "Wolbachia per cell robust z, rep 2": -0.675, "Wolbachia per cell robust z, rep 3": 0.061, "call": "inactive"}
{"gene": "CG14932", "DRSC id": "DRSC26333", "Wolbachia per cell robust z, rep 1": 2.8, "Wolbachia per cell robust z, rep 2": 1.07, "Wolbachia per cell robust z, rep 3": 1.5, "call": "inactive"}
{"gene": "mRpL18", "DRSC id": "DRSC06142", "Wolbachia per cell robust z, rep 1": -5.57, "Wolbachia per cell robust z, rep 2": -0.164, "Wolbachia per cell robust z, rep 3": 0.24, "call": "inactive"}
{"gene": "CG7768", "DRSC id": "DRSC10914", "Wolbachia per cell robust z, rep 1": 0.724, "Wolbachia per cell robust z, rep 2": 0.151, "Wolbachia per cell robust z, rep 3": 0.742, "call": "inactive"}
{"gene": "Or7a", "DRSC id": "DRSC18691", "Wolbachia per cell robust z, rep 1": 0.986, "Wolbachia per cell robust z, rep 2": 0.437, "Wolbachia per cell robust z, rep 3": -0.0869, "call": "inactive"}
{"gene": "Hsp60A", "DRSC id": "DRSC20254", "Wolbachia per cell robust z, rep 1": -0.662, "Wolbachia per cell robust z, rep 2": 0.298, "Wolbachia per cell robust z, rep 3": 0.461, "call": "inactive"}
{"gene": "lin", "DRSC id": "DRSC07644", "Wolbachia per cell robust z, rep 1": -1.09, "Wolbachia per cell robust z, rep 2": 0.427, "Wolbachia per cell robust z, rep 3": -0.173, "call": "inactive"}
{"gene": "lin", "DRSC id": "DRSC28074", "Wolbachia per cell robust z, rep 1": -0.383, "Wolbachia per cell robust z, rep 2": 0.308, "Wolbachia per cell robust z, rep 3": 0.273, "call": "inactive"}
{"gene": "CG7011", "DRSC id": "DRSC09347", "Wolbachia per cell robust z, rep 1": -0.621, "Wolbachia per cell robust z, rep 2": 1.1, "Wolbachia per cell robust z, rep 3": 0.168, "call": "inactive"}
{"gene": "CG7011", "DRSC id": "DRSC28334", "Wolbachia per cell robust z, rep 1": 0.00726, "Wolbachia per cell robust z, rep 2": 0.27, "Wolbachia per cell robust z, rep 3": -1.21, "call": "inactive"}
{"gene": "CG32249", "DRSC id": "DRSC08101", "Wolbachia per cell robust z, rep 1": 0.399, "Wolbachia per cell robust z, rep 2": -0.406, "Wolbachia per cell robust z, rep 3": 1.46, "call": "inactive"}
{"gene": "CG32249", "DRSC id": "DRSC08177", "Wolbachia per cell robust z, rep 1": 0.527, "Wolbachia per cell robust z, rep 2": -4.22, "Wolbachia per cell robust z, rep 3": 0.485, "call": "inactive"}
{"gene": "CG32249", "DRSC id": "DRSC22444", "Wolbachia per cell robust z, rep 1": 0.598, "Wolbachia per cell robust z, rep 2": -1.04, "Wolbachia per cell robust z, rep 3": 0.024, "call": "inactive"}
{"gene": "CR40441", "DRSC id": "DRSC22916", "Wolbachia per cell robust z, rep 1": 0.607, "Wolbachia per cell robust z, rep 2": 0.798, "Wolbachia per cell robust z, rep 3": 1.17, "call": "inactive"}
{"gene": "CG4866", "DRSC id": "DRSC06899", "Wolbachia per cell robust z, rep 1": -0.0382, "Wolbachia per cell robust z, rep 2": 0.856, "Wolbachia per cell robust z, rep 3": 0.671, "call": "inactive"}

Called active, of those listed so far:
{"gene": "CycB3", "DRSC id": "DRSC16618", "Wolbachia per cell robust z, rep 1": -2.21, "Wolbachia per cell robust z, rep 2": -0.46, "Wolbachia per cell robust z, rep 3": -1.6, "call": "active"}
{"gene": "CG8509", "DRSC id": "DRSC20109", "Wolbachia per cell robust z, rep 1": -2.35, "Wolbachia per cell robust z, rep 2": 0.662, "Wolbachia per cell robust z, rep 3": -2.72, "call": "active"}
